As a reminder, the inhibition is the drop in the measured response relative to a control, in per cent.

The entries are a selection whose mix differs from that of the whole data set. Calls of active or inactive are those of the source.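 Rule for the calls: active = replicate-average signal at least 3 plate SD below neutral wells, shown as high inhibition, flagging enzyme-inhibiting false positives; inactive = the rest.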

For this assay, the system named is Beta-galactosidase (Escherichia coli), counter-screen for EBI2 antagonists. As to the kind of experiment: inhibitors of purified bacterial beta-gal – biochemical, luminescence, single concentration, counter-screen for EBI2 antagonist project, confirmation (AID 652176).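 Note: 0% = DMSO wells with enzyme and 100% = wells lacking enzyme; higher means stronger loss of beta-gal luminescence.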 Particulars: luminescent Galacton Star, 15 min, at 5 µM, stronger effect = higher value. (In general: Counterscreens check selectivity or assay interference.)
For `CN(Cc1cccnc1)C(=O)COc1ccc(Cl)c(Cl)c1.O=[N+]([O-])c1cc([N+](=O)[O-])c(O)c([N+](=O)[O-])c1`, the inhibition was inactive: -7.13%.
